Results of unrelated studies side by side (data: NIAID ChemDB).

Shared fields: tests in culture; species: Junin virus

ECn: concentration that inhibits the pathogen or its effect by n%.

{"compound": "Cc1cn(CCCC(O)CF)c(=O)[nH]c1=O", "cells": "VERO", "measure": "EC50", "result": ">200 µg/mL"}
{"compound": "CC[C@@H](C(C)C)[C@H](O)[C@@H](O)[C@@H](C)[C@H]1CC[C@H]2[C@@H]3CC(=O)[C@H]4C[C@H](O)[C@H](O)C[C@]4(C)[C@H]3CC[C@]12C", "strain": "XJCI3", "cells": "VERO", "measure": "EC50", "result": "1.8 µM"}
{"compound": "Nc1ncnc2c1ncn2[C@@H]1C=C[C@@H](O)[C@H]1O", "measure": "MIC", "result": "1 µg/mL"}
{"compound": "Nc1nc2c(ncn2CCCC(O)CF)c(=O)[nH]1", "cells": "VERO", "measure": "EC50", "result": ">200 µg/mL"}
{"compound": "CC12CC[C@H](O)CC1=CCC1C2CCC2(C)C(C(=O)COS(=O)(=O)O)CCC12", "strain": "IV4454", "cells": "VERO", "measure": "inhibition", "tested at": "80 µg/mL", "result": "18.4%"}
{"compound": "CC[C@@H](C(C)C)[C@H](O)[C@@H](O)[C@@H](C)[C@H]1CC[C@H]2[C@@H]3CC(=O)[C@@]4(O)C[C@@H](OC(C)=O)CC[C@]4(C)[C@H]3CC[C@]12C", "strain": "IV4454", "cells": "VERO", "measure": "EC90", "result": "15.9 µM"}
{"compound": "Nc1nccc2c1ncn2[C@@H]1C[C@H](CO)[C@@H](O)[C@H]1O", "measure": "MIC", "result": "1 µg/mL"}
{"compound": "C=C[C@H](O)C1=C[C@@H](n2cnc3c(N)ncnc32)[C@H](O)[C@@H]1O", "cells": "VERO", "measure": "EC50", "result": ">50 µg/mL"}
{"compound": "CC[C@@H](C(C)C)[C@@H](O)[C@H](O)[C@@H](C)[C@H]1CC[C@H]2[C@@H]3CC(=O)[C@@]4(O)C[C@@H](Br)CC[C@]4(C)[C@H]3CC[C@]12C", "strain": "IV4454", "cells": "VERO", "measure": "EC50", "result": "0.7 µM"}
{"compound": "Nc1ccn([C@@H]2C=C(CO)[C@@H](O)[C@H]2O)c(=O)n1", "cells": "VERO", "measure": "EC50", "result": "0.03 µg/mL"}
{"compound": "CC12CC[C@H](OS(=O)(=O)O)CC1=CCC1C2CCC2(C)C(C(=O)COS(=O)(=O)O)CCC12", "strain": "IV4454", "cells": "VERO", "measure": "inhibition", "tested at": "80 µg/mL", "result": "10.5%"}
{"compound": "Nc1ncnc2c1ncn2[C@@H]1O[C@H](CO)[C@](O)(C(F)(F)F)[C@H]1O", "cells": "VERO", "measure": "EC50", "result": "10 µg/mL"}
{"compound": "CC[C@@H](O)C1=C[C@@H](n2cnc3c(N)ncnc32)[C@H](O)[C@@H]1O", "cells": "VERO", "measure": "EC50", "result": ">50 µg/mL"}
{"compound": "CC(C)=CCCC(COS(=O)(=O)O)C1CCC2C3CC=C4C[C@H](O)[C@@H](OS(=O)(=O)O)CC4(C)C3CCC12C", "strain": "IV4454", "cells": "VERO", "measure": "inhibition", "tested at": "80 µg/mL", "result": "27.2%"}
{"compound": "CC[C@@H](C(C)C)[C@@H](O)[C@H](O)[C@@H](C)[C@H]1CC[C@H]2[C@@H]3CC(=O)[C@H]4C[C@H](O)[C@H](O)C[C@]4(C)[C@H]3CC[C@]12C", "strain": "IV4454", "cells": "VERO", "measure": "EC90", "result": "12.6 µM"}
{"compound": "Nc1ncnc2c1ncn2[C@@H]1CC[C@@H](O)[C@H]1O", "measure": "MIC", "result": "0.01 µg/mL"}
{"compound": "CC[C@@H](C(C)C)[C@H](O)[C@@H](O)[C@@H](C)[C@H]1CC[C@H]2[C@@H]3CC(=O)[C@@]4(O)C[C@@H](Br)CC[C@]4(C)[C@H]3CC[C@]12C", "strain": "IV4454", "cells": "VERO", "measure": "EC50", "result": "0.4 µM"}
{"compound": "Nc1ncnc2c1ncn2[C@@H]1C=C(CO)[C@@H](O)[C@H]1O", "cells": "VERO", "measure": "EC50", "result": "0.5 µg/mL"}
{"compound": "O=c1ccn([C@@H]2O[C@H](CO)[C@](O)(C(F)(F)F)[C@H]2O)c(=O)[nH]1", "cells": "VERO", "measure": "EC50", "result": ">200 µg/mL"}

Repeating the final 2 entries:

compound,strain,cells,measure,tested at,result
Nc1ncnc2c1ncn2[C@@H]1C=C(CO)[C@@H](O)[C@H]1O,-,VERO,EC50,-,0.5 µg/mL
O=c1ccn([C@@H]2O[C@H](CO)[C@](O)(C(F)(F)F)[C@H]2O)c(=O)[nH]1,-,VERO,EC50,-,>200 µg/mL

Rows are shuffled and stem from different studies. Percent inhibition refers to the dose given; in toxicity tests it is the harm to the cells. An empty or dashed field is not shown.